The values below come from BindingDB's records for doi:10.1016/j.bmc.2017.03.009 (Wuhan Institute of Technology, 2017).

Test [1] in a line: Inhibition of HIV-1 reverse transcriptase E138K mutant infected in human MT4 cells assessed as protection against virus-induced cytopathic effect measured at 5 days post infection by MTT assay.
Test [2] in a line: Inhibition of HIV1 RES056 reverse transcriptase K103N/Y181C double mutant infected in human MT4 cells assessed as protection against virus-induced cytopathic effect measured at 5 days post infection by MTT assay.

In general, EC50 refers to the concentration at which the effect is half-maximal. On to `Cc1cc(C#N)cc(C)c1Oc1nc(Nc2ccc(C#N)cc2)nc(N)c1Br`, for which the concentration giving a half-maximal response (EC50) stood at 17 nM in test [1] and 46 nM in test [2].
